Patent US20060002932A1, “Methods and compositions for enhancement of immunity by in vivo depletion of immunosuppressive cell activity” (priority 2004, published 2006)

Molecular target: IL-2 receptor (IL-2R) on human CD4+/CD25high regulatory T cells (human) (UniProt P01589)
Assay: cell-based or functional assay

denileukin diftitox (DAB389IL-2) (from UniProt P00588 33-418; P60568 21-153)
7-AAD staining of CD4+ T-cell populations with increasing densities of CD25: 5 nM
